Measured values from several laboratories, pooled; numbers as filed in NIAID ChemDB.

All rows: tests on isolated targets

An empty or dashed field is not shown.

SMILES | tested at | read by | organism | read-out | target | changes | strain | value
COc1cccc(C(C)Cc2coc3nc(N)nc(N)c23)c1 | - | - | Toxoplasma gondii | IC50 | Dihydrofolate reductase | - | - | 28 µM
Cc1cc(Cl)c(-n2nnnc2SCC(=O)Nc2ccc(C#CC(C)(C)O)cc2Cl)cc1C(F)(F)F | - | PicoGreen / fluorescence | HIV-1 | IC50 | Reverse transcriptase | - | WT | <1 µM
Cc1cccc(-c2cncc(N3CCN(c4ccc(F)cc4)CC3)n2)c1 | 10 µM | - | Cytomegalovirus | inhibition | UL97 kinase | - | - | >15%
CCOC(=O)CCCN1C(=O)c2ccccc2C(C(=O)c2ccccc2)C1=O | - | - | Rhinovirus | IC50 | Protease | - | Serotype 14 | 63.3 µM
CC(Cc1coc2nc(N)nc(N)c12)c1ccc(S)c(Cl)c1Cl | - | - | Toxoplasma gondii | IC50 | Dihydrofolate reductase | - | - | 5 µM
Cc1ccc(-c2c(OCC(=O)Nc3ccc(C#CC(C)(C)C(=O)O)cc3Cl)n[nH]c2C)c(Cl)c1 | - | PicoGreen / fluorescence | HIV-1 | IC50 | Reverse transcriptase | RT-K103 Y181C | - | <1 µM
Fc1ccc(-c2cncc(N3CCN(c4ccncc4)CC3)n2)c(F)c1 | - | - | Cytomegalovirus | IC50 | UL97 kinase | - | - | <10 µM
O=C(O)c1ccc2c(c1)nc(-c1ccc3nccc(NCCCCO)c3c1)n2C1CCCCC1 | 100 µM | - | Hepatitis C virus | inhibition | NS5B polymerase | - | - | 92.05%
CC(C)(C#Cc1ccc(NC(=O)CSc2nnnn2-c2ccc(C3CC3)cc2Cl)c(Cl)c1)OCCO | - | PicoGreen / fluorescence | HIV-1 | IC50 | Reverse transcriptase | RT-K103 Y181C | - | <1 µM
C/C(=C\c1coc2nc(N)nc(N)c12)c1ccc2ccccc2c1 | - | - | Toxoplasma gondii | IC50 | Dihydrofolate reductase | - | - | 0.3 µM
COc1ccc(-c2ccc(C(F)(F)F)cc2)c(-c2ccc3cc(-c4nc5cc(C(=O)O)ccc5n4C4CCCCC4)ccc3n2)c1 | 33 µM | - | Hepatitis C virus | inhibition | NS5B polymerase | - | - | 98.82%
CC(C(=O)O)C(=O)NC(C)(C)C#Cc1ccc(NC(=O)CSc2nnnn2-c2ccc(C3CC3)cc2Cl)c(Cl)c1 | - | PicoGreen / fluorescence | HIV-1 | IC50 | Reverse transcriptase | RT-K103 Y181C | - | <1 µM
C/C(=C/c1coc2nc(N)nc(N)c12)c1cccc2ccccc12 | - | - | Toxoplasma gondii | IC50 | Dihydrofolate reductase | - | - | 0.3 µM
Cc1ccc(-n2nnnc2SCC(=O)Nc2ccc(/C=C/C(=O)O)cc2Cl)c(Cl)c1 | - | PicoGreen / fluorescence | HIV-1 | IC50 | Reverse transcriptase | RT-K103 Y181C | - | <1 µM
CSCCCN1C(=O)c2ccccc2C(CC(=O)c2ccccc2)C1=O | - | - | Rhinovirus | IC50 | Protease | - | Serotype 14 | >200 µM
CC(C)(O)C#Cc1ccc(NC(=O)CSc2nnnn2-c2c(F)ccc(C(F)(F)F)c2Cl)c(Cl)c1 | - | PicoGreen / fluorescence | HIV-1 | IC50 | Reverse transcriptase | RT-K103 Y181C | - | <1 µM
COc1ccc(N2CCN(c3cncc(-c4csc5ccccc45)n3)CC2)cc1OC | - | - | Cytomegalovirus | IC50 | UL97 kinase | - | - | <10 µM
CN(C)c1cccc2c(S(=O)(=O)Nc3ccc(NC(=O)C(C)(C)CO)cc3)cccc12 | - | - | Mouse cytomegalovirus | IC50 | Terminase | - | M89/M104-WILD TYPE | 0.03 µM
O=C(COc1ccc(NC(=O)CSc2nnnn2-c2ccc(C3CC3)cc2Cl)c(Cl)c1)NCCc1ccc[n+]([O-])c1 | - | PicoGreen / fluorescence | HIV-1 | IC50 | Reverse transcriptase | - | WT | <1 µM
O=C(O)c1ccc2c(c1)nc(-c1ccc3nc(-c4cccc(Br)c4)ccc3c1)n2C1CCCCC1 | 33 µM | - | Hepatitis C virus | inhibition | NS5B polymerase | - | - | 100%
Nc1nc(=O)c2ncn(COCCO)c2c(=O)[nH]1 | - | helicase activity | West Nile virus | IC50 | NTPase/helicase | - | - | >500 µM
Nc1nc2c(ncn2[C@H]2CO[C@@H](COP(=O)(O)OP(=O)(O)OP(=O)(O)O)O2)c(=O)[nH]1 | - | radiometric | HIV | Ki | Reverse transcriptase | RT-D67N K70R T215Y K219Q | - | 0.09 µM
O=C(c1ccc2c(c1)nc(-c1cc3ccc(-c4ccccc4-c4ccccc4)nc3cc1F)n2C1CCCCC1)N1CCC(O)CC1 | 100 µM | - | Hepatitis C virus | inhibition | NS5B polymerase | - | - | 88.64%
COc1cccc(/C(C)=C\c2coc3nc(N)nc(N)c23)c1 | - | - | Toxoplasma gondii | IC50 | Dihydrofolate reductase | - | - | 10 µM
O=C(O)c1ccc2c(c1)nc(-c1ccc3nc(CCCO)ccc3c1)n2C1CCCCC1 | 33 µM | - | Hepatitis C virus | inhibition | NS5B polymerase | - | - | 83.75%
CC(=O)c1cccc(-c2cncc(N3CCN(c4ccccc4)CC3)n2)c1 | 1 µM | - | Cytomegalovirus | inhibition | UL97 kinase | - | - | <50%
CN1CCN(C(=O)c2ccc(NC(=O)CSc3nnnn3-c3ccc(C(C)(C)C)cc3Cl)c(Cl)c2)CC1 | - | PicoGreen / fluorescence | HIV-1 | IC50 | Reverse transcriptase | - | WT | <1 µM
CS(=O)(=O)CCCN1C(=O)c2ccccc2C(CC(=O)c2ccccc2)C1=O | - | - | Rhinovirus | IC50 | Protease | - | Serotype 2 | 3.1 µM
CCCCCCCCCCCCC/C=C/[C@@H](O)[C@H](CO[C@@H]1O[C@H](CO)[C@H](O)[C@H](OS(=O)(=O)O)[C@H]1O)NC(=O)CCCCCCCCCCCCCCCCCCCCCCC | 200 µM | - | Influenza A virus | inhibition | Sialidase | - | H3N2 A/HONG KONG/1/68 | 42.2%
Cc1nnc(SCC(=O)Nc2ccc(C#CC(C)(C)COC(N)=O)cc2Cl)n1-c1ccc(C2CC2)cc1Cl | - | PicoGreen / fluorescence | HIV-1 | IC50 | Reverse transcriptase | - | WT | <1 µM
Cc1ccccc1-c1cncc(N2CCN(c3ccncc3)CC2)n1 | 10 µM | - | Cytomegalovirus | inhibition | UL97 kinase | - | - | >15%
O=C(O)c1ccc2c(c1)nc(-c1ccc3nc(-c4cccc(C(=O)N5CCCC5)c4)ccc3c1)n2C1CCCCC1 | 100 µM | - | Hepatitis C virus | inhibition | NS5B polymerase | - | - | 99.67%
CC(C)(C#Cc1ccc(NC(=O)CSc2nnnn2-c2ccc(C3CC3)cc2Cl)c(Cl)c1F)NC(=O)CN1CCNCC1 | - | PicoGreen / fluorescence | HIV-1 | IC50 | Reverse transcriptase | RT-K103 Y181C | - | <1 µM
FC(F)(F)c1cccc(N2CCN(c3cncc(-c4ccoc4)n3)CC2)c1 | 10 µM | - | Cytomegalovirus | inhibition | UL97 kinase | - | - | >15%
CC(C)(C#Cc1ccc(NC(=O)CSc2nnnn2-c2cc(C(F)(F)F)cc(C3CC3)c2Cl)c(Cl)c1)OCCN1CCNCC1 | - | PicoGreen / fluorescence | HIV-1 | IC50 | Reverse transcriptase | - | WT | <1 µM
CSCCCN1C(=O)c2ccccc2C(C(=O)c2ccccc2)C1=O | - | - | Rhinovirus | IC50 | Protease | - | Serotype 14 | 56 µM
O=c1[nH][nH]c(=O)c2c1ncn2[C@@H]1O[C@H](CO)[C@@H](O)[C@H]1O | - | - | West Nile virus | IC50 | NTPase/helicase | - | - | 0.28 µM
CC(=O)CC1(O)c2c3[nH]c4ccccc4c3cc[n+]2C2C=CC=CC21 | - | ELISA | - | IC50 | p56lck tyrosine kinase | - | - | <300 µM
CC(=O)c1ccc(N2CCN(c3cncc(-c4ccc(C)cc4)n3)CC2)cc1 | 1 µM | - | Cytomegalovirus | inhibition | UL97 kinase | - | - | <50%
O=C(CSc1nnnn1-c1ccc(C2CC2)cc1Cl)Nc1ccc(C#CC2(CNCCN3CCCC3)CC2)cc1Cl | - | PicoGreen / fluorescence | HIV-1 | IC50 | Reverse transcriptase | - | WT | <1 µM
Oc1ccc(-c2cncc(Nc3ccc(F)c(Cl)c3)n2)cc1 | - | - | Cytomegalovirus | IC50 | UL97 kinase | - | - | <1 µM
CC(C)(C#Cc1ccc(NC(=O)CSc2nnnn2-c2ccc(C(C)(C)C)cc2Cl)c(Cl)c1)OCC(=O)N1CCC(C(=O)O)CC1 | - | PicoGreen / fluorescence | HIV-1 | IC50 | Reverse transcriptase | - | WT | <1 µM
COc1cccc(N2CCN(c3cncc(-c4ccc(CO)cc4)n3)CC2)c1 | 1 µM | - | Cytomegalovirus | inhibition | UL97 kinase | - | - | <50%
CN(C)CC(=O)NC(C)(C)C#Cc1ccc(NC(=O)CSc2nnnn2-c2cc(C(F)(F)F)ccc2Cl)c(Cl)c1 | - | PicoGreen / fluorescence | HIV-1 | IC50 | Reverse transcriptase | RT-K103 Y181C | - | <1 µM
C=C1/C=C(\C)[C@H](CC)OC(=O)[C@H](C)C(=O)C(O)(CO)C/C(OC)=C/[C@@H](C)C1 | - | - | Cryptococcus neoformans | IC50 | Inositol phosphorylceramide synthase | - | - | 0.0038 µM
CC(C)(C#Cc1ccc(NC(=O)CSc2nnnn2-c2cc(Br)ccc2Cl)c(Cl)c1)NC(=O)c1cc[n+]([O-])cc1 | - | PicoGreen / fluorescence | HIV-1 | IC50 | Reverse transcriptase | - | WT | <1 µM
O=C(O)c1ccc2c(c1)nc(-c1ccc3nc(C(=O)Nc4ccc(Cl)cc4)ccc3c1)n2C1CCCCC1 | 100 µM | - | Hepatitis C virus | inhibition | NS5B polymerase | - | - | 100%
CC(C)(C#Cc1ccc(NC(=O)CSc2nnnn2-c2cc(Cl)ccc2Cl)c(Cl)c1)NC(=O)c1cc[n+]([O-])cc1 | - | PicoGreen / fluorescence | HIV-1 | IC50 | Reverse transcriptase | RT-K103 Y181C | - | <1 µM
Cc1oc(-c2ccc(Cl)cc2)cc1-c1ccc2cc(-c3nc4cc(C(=O)O)ccc4n3C3CCCCC3)ccc2n1 | 33 µM | - | Hepatitis C virus | inhibition | NS5B polymerase | - | - | 99.73%
CC(C)C[C@H](NC(=O)[C@@H](O)[C@H](N)Cc1ccccc1)C(=O)O | - | fluorescence | Plasmodium falciparum | Ki | PfM17LAP | - | - | 0.613 µM
CC(C)(C#Cc1ccc(NC(=O)CSc2nnnn2-c2ccc(C3CC3)cc2Cl)c(Cl)c1)OCCN1CCCCC1 | - | PicoGreen / fluorescence | HIV-1 | IC50 | Reverse transcriptase | - | WT | <1 µM

A second listing of 3 rows from above:

SMILES	tested at	read by	organism	read-out	target	changes	strain	value
CN(C)c1cccc2c(S(=O)(=O)Nc3ccc(NC(=O)C(C)(C)CO)cc3)cccc12	-	-	Mouse cytomegalovirus	IC50	Terminase	-	M89/M104-WILD TYPE	0.03 µM
CC(C)C[C@H](NC(=O)[C@@H](O)[C@H](N)Cc1ccccc1)C(=O)O	-	fluorescence	Plasmodium falciparum	Ki	PfM17LAP	-	-	0.613 µM
COc1cccc(N2CCN(c3cncc(-c4ccc(CO)cc4)n3)CC2)c1	1 µM	-	Cytomegalovirus	inhibition	UL97 kinase	-	-	<50%

Neighbouring rows are from separate reports. Inhibition is in % at the dose shown (toxicity tests: loss of growth or viability). ICn is the concentration giving n% inhibition.